PubChem BioAssay AID1259414 – Drosophila RNAi Screening Center – 2018

- Test: 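Genome-wide screen for host control of endosymbiont load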 (primary screen)
- System: Drosophila JW18 cells infected with Wolbachia
- Reagents: long dsRNA against Drosophila genes, 0.25 µg dsRNA per well of a 384-well plate
- Timing: 5 days
- Conditions: cells persistently infected with Wolbachia before knock-down; no added drug
- Measurement: 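Imaged fluorescence in situ signal for Wolbachia 23S rRNA per DAPI-counted host cell, given as a robust z-score within each plate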
- Direction: Wolbachia per cell robust z: higher = more Wolbachia per host cell than the plate typical
- Hit rule: 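Hit when robust z is 1.5 or more, or -1.5 or less, in at least two of three replicates; excludes dsRNAs with several or no targets, genes not expressed in JW18 and well A1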
The screen tested about 24,000 reagents; this is a random part of those that have a named target and a result. Over the whole deposit, about 1,210 (5%) are marked active. 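Inactive calls also include excluded dsRNAs with several or no targets, genes unexpressed in JW18, and well A1, regardless of score.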 The numbers tell different reagents against one gene apart. Names joined by + are all predicted targets of the reagent.

| target gene | reagent | Wolbachia per cell robust z, rep 1 | Wolbachia per cell robust z, rep 2 | Wolbachia per cell robust z, rep 3 | Call |
| --- | --- | --- | --- | --- | --- |
| CG16710 | 1 | 0.135 | -0.441 | -0.766 | inactive |
| SCAR | 1 | -0.782 | -0.568 | -0.541 | inactive |
| CG18853 | 1 | 0.506 | -0.613 | 0.243 | inactive |
| antr | 1 | 0.985 | -2.88 | -0.907 | inactive |
| CG7798 | 1 | 0.573 | 0.0112 | -0.113 | inactive |
| mip120 | 1 | -3.38 | -0.338 | 0.595 | inactive |
| mip120 | 2 | -7.38 | 1.28 | 0.833 | inactive |
| NLaz | 1 | -1.05 | 0.877 | -0.74 | inactive |
| Ir60c | 1 | -1.75 | -0.798 | -0.859 | inactive |
| l(2)37Cd | 1 | 1.15 | 0.753 | 0.287 | inactive |
| RfC38 + Nup160 | 1 | -2.19 | -0.00483 | 0.723 | inactive |
| sowi | 1 | -1.18 | -1.14 | -0.377 | inactive |
| sowi | 2 | 0.547 | -0.0946 | 0.00519 | inactive |
| PMCA | 1 | -2.81 | 1.66 | 0.791 | inactive |
| PMCA | 2 | -1.43 | 1.76 | 3.45 | active |
| PMCA | 3 | 0.366 | 2.29 | -0.495 | inactive |
| Tak1 | 1 | -1.12 | -0.194 | -1.22 | inactive |
| Tak1 | 2 | -0.935 | -1.25 | -3.15 | inactive |
| Tak1 | 3 | -0.26 | -0.0216 | -7.9 | inactive |
| Arp2 | 1 | 1.11 | -0.6 | 1.24 | inactive |

7 entries from above in another layout.
RfC38 + Nup160
- Wolbachia per cell robust z, rep 1: -2.19
- Wolbachia per cell robust z, rep 2: -0.00483
- Wolbachia per cell robust z, rep 3: 0.723
- Call: inactive

sowi #1
- Wolbachia per cell robust z, rep 1: -1.18
- Wolbachia per cell robust z, rep 2: -1.14
- Wolbachia per cell robust z, rep 3: -0.377
- Call: inactive

sowi #2
- Wolbachia per cell robust z, rep 1: 0.547
- Wolbachia per cell robust z, rep 2: -0.0946
- Wolbachia per cell robust z, rep 3: 0.00519
- Call: inactive

PMCA #1
- Wolbachia per cell robust z, rep 1: -2.81
- Wolbachia per cell robust z, rep 2: 1.66
- Wolbachia per cell robust z, rep 3: 0.791
- Call: inactive

PMCA #2
- Wolbachia per cell robust z, rep 1: -1.43
- Wolbachia per cell robust z, rep 2: 1.76
- Wolbachia per cell robust z, rep 3: 3.45
- Call: active

PMCA #3
- Wolbachia per cell robust z, rep 1: 0.366
- Wolbachia per cell robust z, rep 2: 2.29
- Wolbachia per cell robust z, rep 3: -0.495
- Call: inactive

Tak1 #1
- Wolbachia per cell robust z, rep 1: -1.12
- Wolbachia per cell robust z, rep 2: -0.194
- Wolbachia per cell robust z, rep 3: -1.22
- Call: inactive

Next results:
| target gene | reagent | Wolbachia per cell robust z, rep 1 | Wolbachia per cell robust z, rep 2 | Wolbachia per cell robust z, rep 3 | Call |
| --- | --- | --- | --- | --- | --- |
| CG1468 | 1 | -0.269 | 0.393 | -0.959 | inactive |
| CG1468 | 2 | 1.27 | 0.553 | -0.39 | inactive |
| CG7168 | 1 | -0.479 | -0.803 | -0.216 | inactive |
| CG11475 | 1 | -1.85 | -1.14 | 0.332 | inactive |
| CG11475 | 2 | -5.88 | -0.138 | 0.498 | inactive |
| CycE | 1 | 1.78 | 1.79 | 2.68 | active |
| CycE | 2 | 1.64 | 0.931 | 1.76 | active |
| CycE | 3 | 0.995 | 0.0662 | 1.15 | inactive |
| Trs20 | 1 | -0.0255 | -5.73 | -0.537 | inactive |
| RyR | 1 | -0.113 | 0.347 | -0.967 | inactive |
| wdb | 1 | 0.479 | 0.663 | 0.712 | inactive |
| CG15861 | 1 | -1.07 | -1.63 | 0.668 | inactive |
| CG15861 | 2 | -0.0499 | -0.544 | 0.213 | inactive |
| CG7298 | 1 | -0.354 | -0.158 | 0.222 | inactive |
| CG11458 | 1 | 0.628 | 0.511 | 0.672 | inactive |
| Nox | 1 | 0.473 | -0.214 | 0.164 | inactive |
| Nox | 2 | 1.25 | 0.0928 | 0.116 | inactive |
| Nox | 3 | 0.449 | -0.245 | -0.166 | inactive |
| Nox | 4 | 0.163 | -0.465 | -0.395 | inactive |
| Nipped-A | 1 | 1.7 | 1.39 | -0.0747 | inactive |
| Nipped-A | 2 | -3.03 | 2.05 | -6.28 | active |
| Nipped-A | 3 | -1.44 | -1.03 | -0.0264 | inactive |
| Nipped-A | 4 | -0.0893 | 0.503 | 0.435 | inactive |
| CG33658 | 1 | -2.31 | -2.88 | -2.67 | inactive |
| rb | 1 | 0.743 | -1.55 | 0.688 | inactive |
| rb | 2 | -1.05 | -1.97 | 0.496 | inactive |
